Drawing on PubChem BioAssay AID720547 (The Scripps Research Institute Molecular Screening Center, 2013), this text covers IC50 for 1 molecule.

The subject of this experiment is HEK293 Gal4-VP16 luciferase reporter counterscreen, luminescence. The experiment is described as follows: Gal4-VP16 luciferase reporter inhibitors, dose response, counter-screen for COUP-TFII inhibitor project, cell-based, luminescence, HEK293 (AID 720547).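 Note: potency for lowering the luciferase signal driven by Gal4-VP16.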

The source made the active and inactive calls.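 Rule for the calls: active = compound flagged as a likely artifact in this counterscreen, with IC50 of 10 µM or lower; inactive = IC50 above 10 µM.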

One may read the IC50 as the concentration at which inhibition is half-maximal. Regarding `CC(=O)OC1C(=O)OCC23CCC4(C)OC4C2OC2CC(OC(=O)C=CC=CC(=O)OCCC1C)C3(C)C21CO1` (stereo unspecified), the IC50 was inactive: > 85.5 µM.
